Anti-infective test results gathered from many reports (values: NIAID ChemDB through PubChem).

Common to all: growth or infection tests; organism: HIV-1; read by: cytopathic effect / MTT; endpoint: EC50

ECn: concentration that inhibits the pathogen or its effect by n%. An empty or dashed field is not shown. Lines come from different laboratories, so protocols vary.

smiles,changes,cells,strain,value
Nc1nc2c(ncn2[C@H]2CC[C@@H](CO)O2)c(=O)[nH]1,,MT-4,,0.11 µM
O=S(=O)(O)OCC1OC2OC3C(COS(=O)(=O)O)OC(OC4C(COS(=O)(=O)O)OC(OC5C(COS(=O)(=O)O)OC(OC6C(COS(=O)(=O)O)OC(OC7C(COS(=O)(=O)O)OC(OC8C(COS(=O)(=O)O)OC(OC1C(OS(=O)(=O)O)C2OS(=O)(=O)O)C(OS(=O)(=O)O)C8OS(=O)(=O)O)C(OS(=O)(=O)O)C7OS(=O)(=O)O)C(OS(=O)(=O)O)C6OS(=O)(=O)O)C(OS(=O)(=O)O)C5OS(=O)(=O)O)C(OS(=O)(=O)O)C4OS(=O)(=O)O)C(OS(=O)(=O)O)C3OS(=O)(=O)O,,MT-4,NL43)(JM3100r),105 µg/mL
Cc1nnc2n1-c1ccccc1-n1c(C)nnc1C2C,,MT-4,IIIB,>200 µM
C[C@H](Cn1cnc2c(=O)[nH]c(N)nc21)OCP(=O)(O)O,,MT-4,,3 µM
O=C1/C(=C/c2ccc(O)c(O)c2)CC/C1=C\c1ccc(O)c(O)c1,,MT-4,,>15 µM
CCC(C)Oc1cc(N)nc(Sc2ccccc2OC)n1,,MT-4,IIIB,>71 µM
Cc1cn([C@H]2C[C@H](N=[N+]=[N-])[C@@H](CO)O2)c(=O)[nH]c1=O,,CEM + CEM-SS,RF,0.0156 µM
CCC(C)Oc1nc(Sc2cccc(C)c2)cc(=O)[nH]1,,MT-4,IIIB,>200 µM
CC(C)(C)NC(=O)[C@@H]1CN(Cc2cccnc2)CCN1C[C@@H](O)C[C@@H](Cc1ccccc1)C(=O)N[C@H]1c2ccccc2C[C@H]1O,,MT-4,IIIB,0.046 µM
CC(=O)c1ccc(C)cc1NC(C(N)=O)c1c(Cl)cccc1Cl,,MT-4,NL4-3,0.0005 µg/mL
COC(=O)[C@@H](NC(=O)COc1ccc2ccccc2c1)C(C)C,,MT-4,IIIB,>42 µg/mL
CN1CCN(C2c3nnc(-c4ccccc4)n3-c3ccccc3-n3c(-c4ccccc4)nnc32)CC1,,MT-4,IIIB,>126 µM
O=S(=O)(O)OCC1OC2OC3C(COS(=O)(=O)O)OC(OC4C(COS(=O)(=O)O)OC(OC5C(COS(=O)(=O)O)OC(OC6C(COS(=O)(=O)O)OC(OC7C(COS(=O)(=O)O)OC(OC8C(COS(=O)(=O)O)OC(OC9C(COS(=O)(=O)O)OC(OC1C(OS(=O)(=O)O)C2OS(=O)(=O)O)C(OS(=O)(=O)O)C9OS(=O)(=O)O)C(OS(=O)(=O)O)C8OS(=O)(=O)O)C(OS(=O)(=O)O)C7OS(=O)(=O)O)C(OS(=O)(=O)O)C6OS(=O)(=O)O)C(OS(=O)(=O)O)C5OS(=O)(=O)O)C(OS(=O)(=O)O)C4OS(=O)(=O)O)C(OS(=O)(=O)O)C3OS(=O)(=O)O,,MT-4,NL4-3,1.7 µg/mL
O=C(/C=C/c1ccc(O)c(O)c1)c1cccc(C(=O)/C=C/c2ccc(O)c(O)c2)c1,,MT-4,,>5 µM
CC1=C[C@H]([C@H](O)[C@H](C)[C@@H]2C[C@@H](O)[C@@]3(O)[C@H]4CC[C@@H]5C(C)(C)O[C@H]6CC(=O)O[C@]65C[C@]4(O)CC[C@@]23C)OC1=O,,MT-2 + MT-4,IIIB,0.47 µg/mL
Nc1nc2c(ncn2CCOCP(=O)(O)OP(=O)(O)OP(=O)(O)O)c(=O)[nH]1,,MT-4,,>200 µM
O=C(/C=C(O)/C=C/c1ccccc1)/C=C/c1ccccc1,,MT-4,,>41 µM
COC(=O)[C@H](CO)NC(=O)COc1ccc2ccccc2c1,,MT-4,IIIB,>100 µg/mL
C=C(Cn1cnc2c(=O)[nH]c(N)nc21)OCP(=O)(O)OP(=O)(O)OP(=O)(O)O,,MT-4,,>200 µM
O=c1[nH]cnc2c1ncn2[C@H]1CC[C@@H](CO)O1,,MT-2,LAI,15.4 µM
COCCOCCOCCOCCOCCOCCOCCOC(=O)CCC(=O)O[C@@H]1Cc2ccccc2[C@@H]1NC(=O)[C@H](Cc1ccccc1)C[C@H](O)CN1CCN(Cc2cccnc2)C[C@H]1C(=O)NC(C)(C)C,,MT-4,IIIB,0.19 µM
CCC(C)Oc1cc(N)nc(Sc2ccc(C)cc2)n1,,MT-4,IIIB,>300 µM
CCCCCCCCCCCCCC(=O)O[C@@H](C[C@@H](Cc1ccccc1)C(=O)N[C@H]1c2ccccc2C[C@H]1OC(=O)CCCCCCCCCCCCC)CN1CCN(Cc2cccnc2)C[C@H]1C(=O)NC(C)(C)C,,MT-4,IIIB,>10 µM
N#Cc1ccc(Nc2nc(N)nc(Cc3c(Cl)cccc3Cl)n2)cc1,RT-K103N Y181C,MT-4,NNRTI-resistant (RT K103N Y181C),1.4 µM
C1CNCCNCCCN(CCCN2CCCNCCNCCCNCC2)CCNC1,,MT-4,NL4-3,0.4 µg/mL
O=C1C(=Cc2ccc(O)c(O)c2)C(=O)c2ccccc21,,MT-4,,>32 µM
CN(C)C=C1c2nnc(-c3ccccc3)n2-c2ccccc2-n2c1nnc2-c1ccccc1,,MT-4,IIIB,>133 µM
CCC(C)Oc1cc(N)nc(OC(C)CC)n1,,MT-4,IIIB,>300 µM
CCCCCCCCCCCCCC(=O)O[C@@H]1Cc2ccccc2[C@@H]1NC(=O)[C@H](Cc1ccccc1)C[C@H](O)CN1CCN(Cc2cccnc2)C[C@H]1C(=O)NC(C)(C)C,,CEM + CEM-SS,LAI,0.034 µM
C[C@H](Cn1cnc2c(N)ncnc21)OCP(=O)(O)O,,MT-4,,2.2 µM
O=C(O)P(=O)(O)O,,MT-2,LAI,70.6 µM
CCc1nnc2n1-c1ccccc1-n1c(CC)nnc1C2C,,MT-4,IIIB,>200 µM
CSCC[C@H](NC(=O)COc1ccc2ccccc2c1)C(=O)NN,,MT-4,IIIB,>100 µg/mL
CCC(C)Oc1cc(N)nc(Sc2cccc(OC)c2)n1,,MT-4,IIIB,75 µM
CCc1nnc2n1-c1ccccc1-n1c(CC)nnc1C2,,MT-4,IIIB,>200 µM
COC(=O)[C@H](C)NC(=O)COc1ccc2ccccc2c1,,MT-4,IIIB,>59 µg/mL
CCC(C)Oc1cc(N)nc(Sc2ccccc2C)n1,,MT-4,IIIB,>99 µM
O=C1/C(=C/c2ccc(O)c(O)c2)CSC/C1=C\c1ccc(O)c(O)c1,,MT-4,,>4 µM
CCC[C@@]1(CCc2ccccc2)CC(O)=C([C@H](CC)c2cccc(NS(=O)(=O)c3ccc(C(F)(F)F)cn3)c2)C(=O)O1,,MT-4,IIIB,0.376 µM
Fc1cccc(F)c1C1OCc2nc3ccccc3n21,RT-E138K,CEM,TSAO-resistant (RT E138K),6.92 µM
CCC(C)Oc1cc(N)nc(Sc2ccc(Cl)cc2)n1,,MT-4,IIIB,>106 µM
Cc1ccnc2c1NC(=O)c1cccnc1N2C1CC1,,MT-4,IIIB,0.05 µM
CCC(C)Oc1cc(=O)[nH]c(Sc2ccc(C)cc2)n1,,MT-4,IIIB,110 µM
c1ccc(-c2nnc3n2-c2ccccc2-n2c(nnc2-c2ccccc2)C3)cc1,,MT-4,IIIB,>12 µM

A second listing of 5 rows from above:

smiles | changes | cells | strain | value
COC(=O)[C@H](CO)NC(=O)COc1ccc2ccccc2c1 |  | MT-4 | IIIB | >100 µg/mL
O=C1/C(=C/c2ccc(O)c(O)c2)CC/C1=C\c1ccc(O)c(O)c1 |  | MT-4 |  | >15 µM
CC1=C[C@H]([C@H](O)[C@H](C)[C@@H]2C[C@@H](O)[C@@]3(O)[C@H]4CC[C@@H]5C(C)(C)O[C@H]6CC(=O)O[C@]65C[C@]4(O)CC[C@@]23C)OC1=O |  | MT-2 + MT-4 | IIIB | 0.47 µg/mL
Cc1nnc2n1-c1ccccc1-n1c(C)nnc1C2C |  | MT-4 | IIIB | >200 µM
O=C(O)P(=O)(O)O |  | MT-2 | LAI | 70.6 µM